# Test results published in PMC12880088.
# Target: rYeiE (YeiE-Strep-tag II) (UniProt Q8ZNK8)
# Assay: EMSA
# Conditions: 800 nM rYeiE, 40 ng DNA; 150 mM KCl, 0.1 mM DTT, 0.1 mM EDTA, 10 mM Tris pH 7.4, 20 min at room temperature; 6% native PAGE, SYBR Green; recombinant protein; residues 1-287; probe letters rebuilt from the primers and the genome
sequence,measurement,value
ATATGACAAATTGATGTCATAAATGTGTTTTAGCAACTCGGATGTATGCATTGTTCCCATCCAGAATAACCAACTTTATTTTTGTGCGACGTAGCCGCACCCCGTGATGTCGCCGGGAAGGCCCGGTAAAAGAAGCAAAAAGGTCAAATGCATAGCAGCGCTCAGACATTATGGACATTGTGACGTATAACGCAGCCTCCCACTGAGATTCGCCTTACACGTTTACATCAATTTTTACAAATGCCTAAGATTTTTCCTAATTCGACGCAACTCTACTCGTCAGCTTCGTGACATACAACG (double strand) [PflhD],binding result,no binding

# No signal at the amounts used counts as a negative.
